Assay results published in publication PMC8509923.
Construct, isoform or probe ends are uncertain for at least one entry.

What was measured:
[1] = molecular target: T1, Upc2A DNA-binding domain (Candida glabrata) (UniProt Q6FX18); assay: DNase I footprinting; conditions: 5' amino-MC6 on reverse strand, recombinant protein, residues 1-150, protein details: 6xHis (pET28a+, Upc2A-6X His), label: 5' 32P on forward strand, probe letters rebuilt from the primers and the genome
T1 sequence: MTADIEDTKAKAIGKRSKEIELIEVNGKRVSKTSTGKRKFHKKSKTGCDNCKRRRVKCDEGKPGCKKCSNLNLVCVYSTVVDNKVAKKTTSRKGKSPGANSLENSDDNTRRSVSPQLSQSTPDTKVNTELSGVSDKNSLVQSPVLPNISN

[2] = molecular target: T1, Upc2A DNA-binding domain (Candida glabrata); assay: EMSA; conditions: recombinant protein, residues 1-150, protein details: 6xHis (pET28a+, Upc2A-6X His), label: 5' biotin on one strand, probe letters rebuilt from the primers and the genome

## CAAAGACCCCAGTATTTGTAGACTCATTCCACGGAGCAAAATGTGCTATAAGGATTATTTCTCTGTGCTTCATTTTCTACCTCGTAGATTAGGTTACGTTCAAATTTTAAGTGGCAAAACCATATCCTGATC (double strand) [PDR1 promoter DNase I probe]
[1]; protected region, no hypersensitive site
  binding result: binds

## GATTGCCGAGACTTTCTATGGGCACACCGACTCTATCACGTATACGATCGTATACGTGTGCTACCAACACCCAGACATGCACAGGGCTTGTTCTCGTACAGTGTCACCCCCGTTTAGAGACATCTCTGCTGTGCCATCCAGTGTCCGTAAACGACTAGCGACTCTTTGAAGGGACCACAAGGCAAGAGCGAGCTATACGAGC (double strand) [ERG1 promoter DNase I probe]
[1]; largest protected region, hypersensitive site upstream of SRE
  binding result: binds

## CGGTCTGTGCTAATGTAATACACTCTGATCTATGTCCTGGGTTTGCCAACATGTAAACGAAGGCTAATCGTGTTCCGGTAGTCCCGCTGCTCTTCTGTGTGGCAGTGGTACGGTGGAGGTAGAGGTCCCTGCCTTTGATTCTTCCAAACAGAGTTGGGCTACTTTAGGGGTC (double strand) [CDR1 promoter EMSA probe wt]
[2]
  binding result: binds

## CACGGAATAGGAGGCTCATCGGGACAACTCAGGTGTAGTACTGACGATCAGGATATGGTTTTGCCACTTAAAATTTGAACGTAACCTAATCTACGAGGTAGAAAATGAAGCACAGAGAAATAATCCTTATAGCACATTTTGCTCCGTGGAATGAGTCTACAAATACTGGGGTCTTTG (double strand) [PDR1 promoter EMSA probe wt]
[2]
  binding result: binds

## GAACAAGCCCTGTGCATGTCTGGGTGTTGGTAGCACACGTATACGATCGTATACGTGATAGAGTCGGTGTGCCCATAGAAAGTCTCGGCAATCTGTTACTACATTGGCTTATACATCTACTTACCCGCTGTCGCAAGGGGCTGTCGCAAAGGGCTGTGGCAAAGGAGGACTGATCCCCAGCCTCTTATCCTCTACCCCTCTCTCTTTCTCTCC (double strand) [ERG1 promoter EMSA probe wt]
[2]; two complexes
  binding result: binds
